Experimental data: PubChem BioAssay AID1224833 (University of Georgia, 2016)

Screen: 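Host factors restraining rotavirus as candidate antiviral genes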 (primary screen)
System: monkey MA104 kidney cells
Reagents: siRNA pool against human genes, 50 nM
Time to read-out: 48 h knock-down before infection; read 24 h after infection
Challenge: infection with rotavirus strain RV3 two days after transfection; infectious dose for this stage not given
Detection: 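Rotavirus antigen per well by fluorescent immunoassay, normalised to non-targeting control wells on each plate and given as a standard z-score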
Scale: z-score vs non-targeting control: higher = more rotavirus replication than with non-targeting control
Rule for the call: In these data the active calls have z-score vs non-targeting control at about -1 or lower, or at about 1 or higher
Meaning of the calls: active = z-score beyond 1 either way; inactive = z-score within 1 of zero
This is an unselected part of about 12,000 reagents tested. In the full data, about 5,600 (46%) were called active. 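Active calls cover z-scores past 1 in both directions, so they include lowered as well as raised rotavirus replication.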 Unmarked entries are inactive. No sequences are given here.

| gene | z-score vs non-targeting control |
| --- | --- |
| LMX1B | -1.47 (active) |
| CLDN6 | -1.4 (active) |
| PAQR7 | -1.56 (active) |
| BCAT1 | -0.712 |
| RDH14 | 0.591 |
| NEXMIF | 0.485 |
| TACSTD2 | 0.178 |
| C1orf116 | 2.52 (active) |
| POTEA | 0.24 |
| MARF1 | -0.497 |
| MRPS27 | -0.127 |
| PCDHB5 | -0.939 |
| NELL2 | -0.725 |
| LIPT1 | -1.34 (active) |
| SEC11A | 1.63 (active) |
| TEF | -2.3 (active) |
| STAT2 | -0.561 |
| PDCL2 | -2.06 (active) |
| DSP | -0.137 |
| ADRA2B | -0.567 |
| PLAC8L1 | -2.4 (active) |
| RAB5B | -1.15 (active) |
| MRGPRX2 | 1.69 (active) |
| GAL3ST4 | 0.752 |
| LMAN2 | 0.363 |
| VSIG4 | -2.5 (active) |
| SLC8B1 | -1.13 (active) |
| SNURF | 0.326 |
| GRM6 | 1.14 (active) |
| HSFX1 | -0.346 |
| PMEPA1 | -0.919 |
| GNG7 | -0.622 |
| SULT6B1 | -1.1 (active) |
| LPGAT1 | 0.631 |
| PPP1R27 | -1 (active) |
| LMNB1 | -1.75 (active) |
| TBCB | 0.624 |
| SLX1B | -2.33 (active) |
| RCOR3 | -0.758 |
| ZDHHC14 | 4.03 (active) |
| PIN4 | -3.02 (active) |
| FAM194C | -1.52 (active) |
| TLR5 | 0.647 |
| FMO5 | -1.29 (active) |
| PYROXD2 | 0.493 |
| TASOR | 2.46 (active) |

Laid out differently: 13 of the entries above
gene | z-score vs non-targeting control
MRGPRX2 | 1.69 (active)
GAL3ST4 | 0.752
LMAN2 | 0.363
VSIG4 | -2.5 (active)
SLC8B1 | -1.13 (active)
SNURF | 0.326
GRM6 | 1.14 (active)
HSFX1 | -0.346
PMEPA1 | -0.919
GNG7 | -0.622
SULT6B1 | -1.1 (active)
LPGAT1 | 0.631
PPP1R27 | -1 (active)

More reagents follow:
| gene | z-score vs non-targeting control |
| --- | --- |
| INSIG2 | 0.479 |
| GGACT | -1.78 (active) |
| TOMM34 | -0.669 |
| PCDHGB1 | 0.123 |
| SPANXN5 | 0.572 |
| BCL2 | 2.13 (active) |
| BTNL2 | -2.33 (active) |
| C1orf50 | 3.89 (active) |
| VMP1 | -0.455 |
| GZF1 | -1.56 (active) |
| SPOCK3 | 0.244 |
| LHX9 | -1.72 (active) |
| NAIF1 | -0.652 |
| IFI30 | 1.01 (active) |
| DPY19L3 | -1.04 (active) |
| PRDM6 | 0.837 |
| CDCA5 | -0.696 |
| SMYD3 | -1.89 (active) |
| SYTL2 | -1.55 (active) |
| MTREX | 1.34 (active) |
| OR14C36 | -1.42 (active) |
| BIN3 | 0.06 |
| CD9 | -0.574 |
| ADAM21 | 1.49 (active) |
| DMRTC2 | 0.702 |
| EXOC3L4 | -1.28 (active) |
| OR5W2 | -0.0172 |
| MYOZ2 | -0.528 |
| MS4A15 | -2.8 (active) |
